# Literature values in article PMC6985722 (Antimicrobial Agents and Chemotherapy, 2020).
# Tested on: RSV
# Details: virus challenge study, 17 treated subjects; cited from earlier work
smiles,measurement,value
CC(C)C(=O)OC[C@@]1(CCl)O[C@@H](n2ccc(N)nc2=O)[C@H](F)[C@@H]1OC(=O)C(C)C [ALS-008176],Mutations associated with in vitro resistance,no mutations known to be associated with in vitro resistance to ALS-008176 were detected
